Experimental findings from BindingDB's records for US10087178 (Japan Tobacco, 2018) are described below.

The term EC50 denotes the midpoint of the concentration-response curve. A lower EC50 goes with greater potency.

This assay addresses Protein Nef (Human immunodeficiency virus type 1 group M subtype B (isolate BRU/LAI), UniProt P03406). The assay is described as follows: Measurement of Antiviral (HIV-1) Activity.

Molecules are shown by their SMILES.

`COC[C@H]1C[C@]2(CN(C)C(=O)c3c(OC(=O)N(C)C)c(=O)c(C(=O)NCc4cccc(Cl)c4F)cn32)C1` returned an EC50 of 0.11 µM.
